From ChEMBL document CHEMBL3232785, “Basic quinolinonyl diketo acid derivatives as inhibitors of HIV integrase and their activity against RNase H function of reverse transcriptase” (J Med Chem, 2014)

Target: Human immunodeficiency virus type 1 integrase (Human immunodeficiency virus 1) (UniProt Q7ZJM1)
Assay: Ratio of IC50 for HIV1 integrase 3'-processing activity to IC50 for HIV1 integrase strand transfer activity

| Structure (SMILES) | Ratio IC50 |
| --- | --- |
| O=C(O)/C(O)=C/C(=O)c1cn(Cc2ccc(F)cc2)c2cc(N3CCN(CCCCl)CC3)ccc2c1=O | 100 |
| O=C(O)/C(O)=C/C(=O)c1cn(Cc2ccc(F)cc2)c2cc(N3CCOCC3)ccc2c1=O | 100 |
